Measured values from several laboratories, pooled; numbers as filed in NIAID ChemDB.

Common to all: enzyme or target tests; agent: Hepatitis C virus; protein: NS3 protease; measure: Ki

a–b is a range or a potency band. Rows are shuffled and stem from different studies.

CCC(NC(=O)[C@@H]1[C@H]2CC=C[C@H]2CN1C(=O)[C@@H](NC(=O)[C@@H](NC(=O)c1cnccn1)C(C)C)C(C)C)C(=O)C(=O)N[C@@H](Cc1ccccc1)C(=O)O ; result: 0.09 µM
C=C[C@@H]1C[C@]1(NC(=O)[C@@H]1C[C@@H](Oc2cc(-c3ccccc3)nc3cc(OC)ccc23)C=C1C(=O)N[C@H](C(=O)N[C@H](C(=O)NC)C1CCCCC1)C(C)(C)C)C(=O)O ; result: 0.016 µM
CCC[C@H](NC(=O)[C@@H]1C[C@@H](Oc2cc(-c3ccccc3)nc3cc(OC)ccc23)C[C@H]1C(=O)N[C@H](C(=O)N[C@H](C(=O)NC)C1CCCCC1)C(C)(C)C)C(=O)O ; result: 1.7 µM
CCCC(=O)[C@H](CC)NC(=O)[C@H](CC1CCCCC1)NC(=O)[C@@H](NC(=O)[C@H](CC(C)C)NC(=O)[C@@H](CCC(=O)O)NC(=O)[C@H](CC(=O)O)NC(C)=O)[C@H](C)CC ; result: 0.65 µM
CC(C)[C@H](NC(=O)[C@H](CCC(=O)O)NC(=O)[C@@H](N)CC(=O)O)C(=O)N[C@H](C(=O)N1CCC[C@H]1C(=O)NC1(B2O[C@@H]3CC4CC(C4(C)C)[C@]3(C)O2)CCCCC1)C(C)C ; result: >100 µM
CC[C@H](NC(=O)[C@H](CC1CCCCC1)NC(=O)[C@@H](NC(=O)[C@H](CC(C)C)NC(=O)[C@@H](CCC(=O)O)NC(=O)[C@H](CC(=O)O)NC(C)=O)[C@H](C)CC)C(=O)CCc1nccs1 ; result: 1 µM
CCC[C@H](NC(=O)[C@@H]1C[C@@H](Oc2cc(-c3ccccc3)nc3cc(OC)ccc23)C[C@H]1C(=O)N[C@H](C(=O)N[C@H](C(=O)NC)C1CCCCC1)C(C)C)C(=O)O ; result: 6.6 µM
CC[C@@H](C=O)NC(=O)[C@@H]1C[C@@H](OCc2ccccc2)CN1C(=O)[C@@H](NC(=O)CCC(=O)c1ccccc1)C(C)C ; result: >100 µM
CC[C@@H](C)[C@H](NC(=O)[C@H](CC(C)C)NC(=O)[C@@H](CCC(=O)O)NC(=O)[C@H](CC(=O)O)NOC(=O)CCC(=O)O)C(=O)N[C@@H](CC1CCCCC1)C(=O)NC1(C(=O)C(F)(F)C(F)(F)F)CC1 ; result: 1.8 µM
CC[C@@H](C=O)NC(=O)[C@@H]1C[C@@H](OC(=O)Nc2ccccc2C(=O)CO)CN1C(=O)[C@@H](NC(=O)[C@@H](NC(=O)c1cnccn1)C(C)C)C(C)C ; result: 1–100 µM
CN(C)C(=O)[C@@H](NC(=O)CNC(=O)C(=O)C(CCC1CC1)NC(=O)[C@@H]1[C@@H]2[C@H](CN1C(=O)[C@@H](NC(=O)OC(C)(C)C)C(C)(C)C)C2(C)C)c1ccccc1 ; result: 0.0038 µM
CC[C@@H](C=O)NC(=O)[C@@H]1C[C@@H](OCc2ccccc2)CN1C(=O)[C@@H](NC(=O)c1cccc(C)c1O)C(C)C ; result: >100 µM
CNC(=O)[C@@H](NC(=O)[C@@H](NC(=O)[C@@H]1C[C@H](Oc2cc(-c3ccccc3)nc3cc(OC)ccc23)C[C@H]1C(=O)N[C@@H](CC(F)F)C(=O)O)C(C)(C)C)C1CCCCC1 ; result: 0.56 µM
CC[C@@H](C=O)NC(=O)[C@@H]1C[C@@H](OCc2ccccc2)CN1C(=O)[C@@H](NC(=O)[C@H](Cc1ccc2ccccc2c1)NC(=O)c1cnccn1)C(C)C ; result: 1–100 µM
CC[C@H](NC(=O)[C@H](CC1CCCCC1)NC(=O)[C@@H](NC(=O)[C@H](CC(C)C)NC(=O)[C@@H](CCC(=O)O)NC(=O)[C@H](CC(=O)O)NC(C)=O)[C@H](C)CC)C(=O)CCCCCC(C)C ; result: 0.46 µM
CC[C@@H](C=O)NC(=O)[C@@H]1C[C@@H](OCc2ccc(F)c(F)c2)CN1C(=O)[C@@H](NC(=O)[C@@H](NC(=O)c1cnccn1)C(C)C)C(C)C ; result: 1–100 µM
C=C[C@@H]1C[C@]1(NC(=O)[C@@H]1C[C@@H](Oc2cc(-c3ccccc3)nc3cc(OC)ccc23)C[C@H]1C(=O)N[C@H](C(=O)NC1CCCC1)C(C)(C)C)C(=O)O ; result: 2.7 µM
CC[C@@H](C=O)NC(=O)[C@@H]1C[C@@H](OCc2ccccc2)CN1C(=O)[C@@H](NC(=O)[C@@H](NC(=O)c1cnccn1)[C@H](C)OCc1ccccc1)C(C)C ; result: 1–100 µM
C=C[C@@H]1C[C@]1(NC(=O)[C@@H]1C[C@@H](Oc2cc(-c3ccccc3)nc3cc(OC)ccc23)C[C@H]1C(=O)N[C@H](C(=O)N(C)[C@H](C(=O)NC)C1CCCCC1)C(C)(C)C)C(=O)O ; result: >10 µM
CC[C@@H](C=O)NC(=O)[C@@H]1C[C@@H](OCc2ccccc2)CN1C(=O)[C@@H](NC(=O)c1cccc(Oc2ccccc2)c1)C(C)C ; result: 1–100 µM
CC(C)(C)NC(=O)N[C@H](C(=O)C1CC2C([C@H]1C(=O)N[C@H](CC1CCC1)C(=O)C(N)=O)C2(C)C)C(C)(C)C ; result: 3 µM